SI amastigote and SI trypomastigote data for 6 compounds are collected here from paper PMC12613110, “Anti-Trypanosoma cruzi Effects of Sesquiterpenoids from Branches of Drimys brasiliensis (Winteraceae)” (ACS Omega, 2025).

Values joined by “and” are separate entries in the source; they are usually repeats but may differ in a detail not shown here. Equal entries are not always repeated.

The subject of data set [1] is intracellular amastigote forms of T. cruzi. As to the kind of experiment: Activity against intracellular amastigote forms of T. cruzi in infected peritoneal macrophages (48 h). The class given is cell-based, Trypanosoma cruzi. The note with it: Selectivity Index, NCTC CC50 vs amastigote EC50. On the procedure:
(§1) The trypomastigote forms of T. cruzi (Y strain) were maintained in culture using Rhesus monkey kidney cells (LLC-MK2, ATCC CCL-7). These cells were cultured in RPMI-1640 medium supplemented with 2% fetal bovine serum (FBS) and incubated at 37 °C in a humidified atmosphere containing 5% CO2. Mouse fibroblast cells (NCTC clone L929, ATCC) and LLC-MK2 cells were similarly maintained in RPMI-1640 medium supplemented with 10% FBS under identical incubation conditions (37 °C, 5% CO2). Peritoneal macrophages were isolated from BALB/c mice by peritoneal lavage using RPMI-1640 medium supplemented with 10% FBS, followed by incubation at 37 °C in a 5% CO2 humidified atmosphere. In addition, the human monocytic cell line THP-1 (ATCC TIB-202) was cultured in RPMI-1640 medium supplemented with 20% FBS and […] glutamine, and maintained at 37 °C in a humidified 5% CO2 environment.
The antiparasitic activity of compounds 1–6 against the intracellular amastigote forms of T. cruzi was assessed using an in vitro infection model with peritoneal macrophages. Macrophages were seeded in 16-well plates at a density of 1 × 10^5 cells per well and incubated at 37 °C in a humidified atmosphere containing 5% CO2 for 24 h to promote adherence. Cells were then infected with trypomastigotes for 2 h under the same conditions to allow parasite internalization. Following infection, noninternalized parasites were removed by washing with RPMI-1640 medium. The infected macrophages were subsequently treated with serial dilutions of compounds 1–6 (150.0–1.6 μM) and incubated for an additional 48 h at 37 °C in 5% CO2 to evaluate their antitrypanosomal efficacy. ,
(§2) The CC50 and EC50 values were obtained from sigmoid dose–response curves using Graph-Pad Prims 6.0 software. All samples were tested in triplicate.

Data set [2] concerns T. cruzi trypomastigotes (Y strain). Briefly: Anti-T. cruzi activity against trypomastigote forms (resazurin reduction assay, 24 h). The note with it: Selectivity Index, NCTC CC50 vs trypomastigote EC50. The class given is cell-based, Trypanosoma cruzi. Here is the method: as §1
Compounds 1–6 were initially dissolved in DMSO and subsequently diluted in RPMI-1640 medium to the desired concentrations before being dispensed into 96-well microplates. T. cruzi trypomastigotes were then added at a density of 1 × 10^6 parasites per well. The plates were incubated for 24 h at 37 °C in a humidified atmosphere containing 5% CO2. Following incubation, the 50% effective concentration (EC50) was determined using the resazurin reduction assay. Absorbance readings were acquired at 570 nm using a microplate spectrophotometer (FilterMax F5). Untreated parasites served as the negative control, while benznidazole, a standard reference drug, was used as the positive control.
as §2
(In general: Resazurin is reduced to fluorescent resorufin, in cell work by metabolically active cells.)

As for `CC(C)=CCC[C@@H](C)C1=CC(=O)[C@@](C)(O)CC1` (relative stereo) [Compound 1, rel-(3S,7R)-3-hydroxy-bisabola-1(6),10-dien-2-one], in data set [1], the SI amastigote is recorded as greater than 29.7. The SI trypomastigote in data set [2] is on record as greater than 5.2.

For `CC(C)=CCC[C@@H](C)C1=C[C@H](O)[C@@](C)(O)CC1` (relative stereo) [Compound 2, rel-(2S,3S,7R)-bisabola-1(6),10-diene-2,3-diol], the SI amastigote in data set [1] is recorded as greater than 8.3. This compound also gave an SI trypomastigote in data set [2] greater than 2.3.

In the case of `CC(C)=CCC[C@@H](C)[C@]12C=C[C@](C)(CC1)OO2` (relative stereo) [Compound 3, rel-(3S,6R,7R)-3,6-epidioxy-1,10-bisaboladiene], the SI trypomastigote in data set [2] was greater than 3.0.

Consider `CC(C)=CCC[C@@H](C)c1ccc(C)cc1` [Compound 4, α-curcumene], for which the SI amastigote in data set [1] is 41.1 and >41.1.

With `CC1(C)CCC[C@]2(C)[C@@H](C=O)C(C=O)=CC[C@@H]12` [Compound 5, polygodial], the SI amastigote in data set [1] was 57.3 and >57.3. In addition, the SI trypomastigote in data set [2] is greater than 52.0.

In data set [1], `O=C(Cn1ccnc1[N+](=O)[O-])NCc1ccccc1` [benznidazole, reference compound] yielded an SI amastigote greater than 36.4.
